{
  "source": "paper PMC11218954",
  "about": "“Characterization of two affinity matured Anti-Yersinia pestis F1 human antibodies with medical countermeasure potential” (2024)",
  "assay_in_all_cases": "flow cytometry on cells",
  "key": {"αF1sc 2 EP1-42": {"biological_target": "αF1sc 2 EP1-42"}, "αF1sc 2 EP2-3": {"biological_target": "αF1sc 2 EP2-3"}, "αF1sc 8 EP1-19": {"biological_target": "αF1sc 8 EP1-19"}},
  "data": [
    {"substance": "biotinylated F1V dimer (recombinant fusion of Y. pestis F1 and V antigen) (from UniProt P26948 22-170)", "values": [
      {"measurement": "Kd", "setting": "αF1sc 2 EP1-42", "value": 162, "unit": "nM"},
      {"measurement": "Kd", "setting": "αF1sc 2 EP2-3", "value": 145, "unit": "nM"},
      {"measurement": "Kd", "setting": "αF1sc 8 EP1-19", "value": 36.3, "unit": "nM"}
    ]}
  ]
}
